We go through five substances from patent US9676822B2, “Oligopeptidic compounds and uses thereof” (APIM THERAPEUTICS AS, priority 2008, dated 2017).

The data set concerns HeLa cells. As to the kind of experiment: Cellular import and localisation of tag-labelled peptides by confocal microscopy. The data set is classed as cell-based. The following applies: fluorescent-tagged peptide incubated with HeLa cells.

“MDRFLVKGAWRKRHIIKKRKKRRQRRRK-Ahx5-FAM)G (Ahx5-FAM label, G; MDr26-10)”: the Localization entry is recorded as “nucleus”.

For “MDRWLVKGAWRKRHIRKKRRQRRRK-FITC (FITC label; MDR24-43)”, the Localization entry is “nucleus”.

For the substance “MDRWLVKWKKKRKIRKKRRQRRRK-FAM)G (FAM label, G; MDR26-32)”, the Localization result is “nucleus”.

Regarding “MDRWLVKWRKRHIRKKRRQRRRK-FAM)G (FAM label, G; MDR26-42)”, the Localization result was “nucleus”.

On to “MDRWLVKWWRKRHIIKKRKKRRQRRRK-Ahx5-FAM)G (Ahx5-FAM label, G; MDR26-4)”, for which the Localization result is listed as “nucleus”.
